Assay results: publication PMC10075959 (Science Advances, 2023)
No end group written: not given here.

System: LRS peptide self-association (coiled-coil oligomerization)
Assay type: binding

Row | Molecule | total free energy of trimerization ΔGtrimer
1 | RQPASTVKPDMAEEIAALVLAKLGKDAGQPKQV [MHV] | -8.4 kcal/mol
2 | MASGGGETALALLLLDRLNQLESKVSGKGQQQ [SARS-CoV-1] | -8.863 kcal/mol
3 | CC(C)C[C@H](NC(=O)[C@H](C)NC(=O)[C@H](CC(C)C)NC(=O)[C@@H](NC(=O)[C@@H](NC(=O)[C@H](C)NC(=O)[C@H](C)NC(=O)[C@@H](NC(=O)[C@H](CC(C)C)NC(=O)[C@H](CC(=O)O)NC(=O)[C@H](CO)NC(=O)[C@H](CO)NC(=O)[C@H](CO)NC(=O)[C@H](CCC(N)=O)NC(=O)[C@H](CC(N)=O)NC(=O)[C@H](CO)NC(=O)[C@H](CC(=O)O)NC(=O)[C@H](CO)NC(=O)[C@H](CCCNC(=N)N)NC(=O)[C@@H](N)[C@@H](C)O)C(C)C)C(C)C)[C@@H](C)O)C(=O)N[C@@H](CCCCN)C(=O)N[C@@H](CC(N)=O)C(=O)N[C@@H](CC(C)C)C(=O)NCC(=O)N[C@@H](Cc1ccccc1)C(=O)N[C@@H](CC(=O)O)C(=O)N[C@@H](CC(N)=O)C(=O)N[C@@H](CCC(N)=O)C(=O)N[C@@H](CO)C(=O)N[C@@H](CCCCN)C(=O)N[C@@H](CO)C(=O)N1CCC[C@H]1C(=O)N[C@@H](CO)C(=O)N[C@@H](CO)C(=O)N[C@@H](CO)C(=O)NCC(=O)N[C@H](C(=O)O)[C@@H](C)O [NL63] | -10.5 kcal/mol
4 | NERLPKSNSKQSNQDDIMAAVAAALEKLGFERPNDASQPQKKQNKGTPKPSR [229E-related bat] | -9.7 kcal/mol
